Measured values from several laboratories, pooled; numbers as filed in NIAID ChemDB.

All rows: tests in culture; species: Candida albicans

Conditions beyond the fields shown may differ between rows. A number after MIC or MFC names an inhibition level or a share of isolates. Blank or dashed fields: not listed here.

{"smiles": "COc1cc(/C=C/C(=O)c2cc(OC)c(OC)c(OC)c2)cc(OC)c1OC", "read-out": "MIC", "strain": "ATCC 10231", "value": ">50 µg/mL"}
{"smiles": "CC(C)(C)c1ccc(C[N+]2(C)CCc3cc4c(cc3C2)OCO4)cc1.[Br-]", "method": "broth dilution", "changes": "Fluconazole-resistant", "read-out": "MIC80", "strain": "Clinical isolate", "value": ">64 µg/mL"}
{"smiles": "COc1ccc(C(=O)/C=C/c2cc3cc(OC)c(OC)cc3nc2Cl)cc1OC", "read-out": "MIC", "strain": "ATCC 10231", "value": ">50 µg/mL"}
{"smiles": "Cc1c(N2C[C@@H](C)N[C@@H](C)C2)c(F)cn2c(=O)c(C(=O)O)cc(C3CC3)c12.Cl", "read-out": "MIC", "strain": "CCH442", "value": ">100 µg/mL"}
{"smiles": "Cc1c(N2CCC(F)C2)c(F)cn2c(=O)c(C(=O)O)cc(C3CC3)c12", "read-out": "MIC", "strain": "CCH442", "value": ">100 µg/mL"}
{"smiles": "CC1=C(N2CC3CCCCN3C2)C(F)=CN2C(=O)C(C(=O)O)=CC(C3CC3)C12", "read-out": "MIC", "strain": "CCH442", "value": ">100 µg/mL"}
{"smiles": "O=C(Cc1ccccc1F)NCCc1ccc2c(c1)OCO2", "method": "broth dilution", "changes": "Fluconazole-resistant", "read-out": "MIC80", "strain": "Clinical isolate", "value": ">64 µg/mL"}
{"smiles": "CCC(C)n1ncn(-c2ccc(N3CCN(c4ccc(OC[C@H]5CO[C@](Cn6cncn6)(c6ccc(Cl)cc6Cl)O5)cc4)CC3)cc2)c1=O", "read-out": "MIC", "strain": "AD", "value": "0.13 µg/mL"}
{"smiles": "CN1CCC2=C(CCCC2CCc2ccc(F)cc2)C1", "read-out": "MIC", "strain": "C316", "value": "16 µg/mL"}
{"smiles": "Cc1c(N2C[C@@H]3C(N)[C@@H]3C2)c(F)cn2c(=O)c(C(=O)O)cc(C3CC3)c12.Cl", "read-out": "MIC", "strain": "CCH442", "value": ">100 µg/mL"}
{"smiles": "OC(Cn1cncn1)(Cn1cncn1)c1ccc(F)cc1F", "method": "broth dilution", "read-out": "MIC", "strain": "YL 351", "value": "512 µg/mL"}
{"smiles": "C[C@H](CCC(=O)NCCNCCNC(=O)CC[C@@H](C)[C@H]1CCC2C3CCC4C[C@H](O)CC[C@]4(C)C3C[C@H](C)[C@@]21O)[C@H]1CCC2C3CCC4C[C@H](O)CC[C@]4(C)C3C[C@H](C)[C@@]21O", "read-out": "MIC", "strain": "Isolate 3", "value": "0.012 µM"}
{"smiles": "CCC(C)CC(C)CCCCCCCCC(=O)N[C@H]1C[C@@H](O)[C@@H](O)NC(=O)[C@@H]2[C@@H](O)CCN2C(=O)[C@H]([C@H](O)CC(N)=O)NC(=O)[C@H]([C@H](O)[C@@H](O)c2ccc(O)cc2)NC(=O)[C@@H]2C[C@@H](O)CN2C(=O)[C@H]([C@@H](C)O)NC1=O", "read-out": "MIC", "value": "0.01 µg/mL"}
{"smiles": "Cc1c(N2CCC(N)CC2)c(F)cn2c(=O)c(C(=O)O)cc(C3CC3)c12", "read-out": "MIC", "strain": "CCH442", "value": ">100 µg/mL"}
{"smiles": "CN1CCC2=C(CCCC2CCc2ccccc2Cl)C1", "read-out": "MIC", "strain": "1208E", "value": "62 µg/mL"}
{"smiles": "COCOC1CCN(c2c(F)cn3c(=O)c(C(=O)O)cc(C4CC4)c3c2C)CC1", "read-out": "MIC", "strain": "CCH442", "value": ">100 µg/mL"}
{"smiles": "COc1ccc(C(=O)CC(c2ccc3ccccc3c2)C(C#N)C#N)c(OC)c1", "read-out": "MIC", "strain": "ATCC 10231", "value": ">50 µg/mL"}
{"smiles": "Cc1c(N2CC[C@H](NC(=O)[C@H](C)NC(=O)[C@H](C)N)C2)c(F)cn2c(=O)c(C(=O)O)cc(C3CC3)c12", "read-out": "MIC", "strain": "CCH442", "value": ">100 µg/mL"}
{"smiles": "Cc1c(N2CCC(C)(N)C2)c(F)cn2c(=O)c(C(=O)O)cc(C3CC3)c12.Cl", "read-out": "MIC", "strain": "CCH442", "value": ">100 µg/mL"}
{"smiles": "CC1=C(N2CCC(N)(C(F)(F)F)C2)C(F)=CN2C(=O)C(C(=O)O)=CC(C3CC3)C12", "read-out": "MIC", "strain": "CCH442", "value": ">100 µg/mL"}
{"smiles": "N#CC(C#N)C(CC(=O)c1ccccc1)c1ccc2ccccc2c1", "read-out": "MIC", "strain": "ATCC 10231", "value": ">50 µg/mL"}
{"smiles": "Cc1c(N2CCNCC2)c(F)cn2c(=O)c(C(=O)O)cc(C3CC3)c12", "read-out": "MIC", "strain": "CCH442", "value": ">100 µg/mL"}
{"smiles": "O=C(NCCc1ccc2c(c1)OCO2)NC1CCCCC1", "method": "broth dilution", "changes": "Fluconazole-resistant", "read-out": "MIC80", "strain": "Clinical isolate", "value": ">64 µg/mL"}
{"smiles": "Cc1c(N2CC(N)C(O)C2)c(F)cn2c(=O)c(C(=O)O)cc(C3CC3)c12.Cl", "read-out": "MIC", "strain": "CCH442", "value": "100 µg/mL"}
{"smiles": "Cc1c(N2CCN(C)CC2)c(F)cn2c(=O)c(C(=O)O)cc(C3CC3)c12", "read-out": "MIC", "strain": "CCH442", "value": ">100 µg/mL"}
{"smiles": "CC1=[N+](Cc2ccc(Br)cc2)CCc2cc3c(cc21)OCO3.[Br-]", "method": "broth dilution", "changes": "Fluconazole-resistant", "read-out": "MIC80", "strain": "Clinical isolate", "value": ">64 µg/mL"}
{"smiles": "CSCC[C@H](N)[C@@H]1CCN(c2c(F)cn3c(=O)c(C(=O)O)cc(C4CC4)c3c2C)C1", "read-out": "MIC", "strain": "CCH442", "value": ">100 µg/mL"}
{"smiles": "Brc1ccc(CCC2CCCc3cnccc32)cc1", "read-out": "MIC", "strain": "C316", "value": "31 µg/mL"}
{"smiles": "COCOCC1CCCN(c2c(F)cn3c(=O)c(C(=O)O)cc(C4CC4)c3c2C)C1.Cl", "read-out": "MIC", "strain": "CCH442", "value": ">100 µg/mL"}
{"smiles": "Cc1c(N2CCC(NC3CC3)C2)c(F)cn2c(=O)c(C(=O)O)cc(C3CC3)c12", "read-out": "MIC", "strain": "CCH442", "value": "25 µg/mL"}
{"smiles": "COc1ccc(CCC2(CCc3ccc(OC)cc3)CCCc3cnccc32)cc1", "read-out": "MIC", "strain": "C316", "value": ">125 µg/mL"}
{"smiles": "COc1cc(C[C@H](C)[C@H](C)Cc2ccc(O)c(O)c2)ccc1O", "method": "broth dilution", "read-out": "MIC80", "strain": "CCC 125-2000", "value": "62.5 µg/mL"}

Repeating the final 5 entries:

smiles	method	changes	read-out	strain	value
Brc1ccc(CCC2CCCc3cnccc32)cc1			MIC	C316	31 µg/mL
COCOCC1CCCN(c2c(F)cn3c(=O)c(C(=O)O)cc(C4CC4)c3c2C)C1.Cl			MIC	CCH442	>100 µg/mL
Cc1c(N2CCC(NC3CC3)C2)c(F)cn2c(=O)c(C(=O)O)cc(C3CC3)c12			MIC	CCH442	25 µg/mL
COc1ccc(CCC2(CCc3ccc(OC)cc3)CCCc3cnccc32)cc1			MIC	C316	>125 µg/mL
COc1cc(C[C@H](C)[C@H](C)Cc2ccc(O)c(O)c2)ccc1O	broth dilution		MIC80	CCC 125-2000	62.5 µg/mL